Results as given in patent publication US20130289246A1 (VANDERBILT UNIVERSITY, published 2013).

Tests used:
[1] = molecular target: T1, first-generation H1 LAH construct H1frThrST (Influenza A virus (H1)); experiment: ELISA, recombinant mAb
[2] = molecular target: T1, first-generation H1 LAH construct …; experiment: ELISA, supernate

| Binder | OD [1] [OD] | OD [2] [OD] |
| --- | --- | --- |
| mAb 3N6 (recombinant) (antibody, V domains shown) VH: QVQLQESGPGLVKPSETLSLTCSVSGGSINYYYWSWIRQPPGKGLECIGYISDTGRTYYNPSLRSRVTISVDTSKNQFSLNLTSMTAADTAVYYCARDPTGSRQKNAFDMWGQGTMVTVS VL: AIQMTQSPSSLSASVGDRVTITCRASQNIRSYLNWYQQKPGKAPNLLIYGTTSLESGVPSRFSGSGSGTDFTLTISSLQPEDFATYYCQQSYHTPQTFGQGTKVEIKR | 3.26 | – |
| mAb 6J24 (antibody, V domains shown) VH: EVQLVESGGGLVQPGRSLRLSCVGSGFNFDGYAMQWVRQVPGKGLEWVSGISWHSDSTGYADSVRGRFTISRDNAKNSLYLQMDSLRPEDTAFYYCGKSIGHVGGSYRHPIDYWGQGTLVTVS VL: DIQLTQSPSSLSASVGDRVTITCRASQGITDYLAWYQQKPGTIPKLLIYAASTLQSGVPSRFSGGGYGTDFTLTISSLQPEDVATYYCQKYNSAPLTFGGGTKVEIKR | – | 0.189 |
